Measurements as given in the supplement of paper PMC9931576.
Human monoclonal antibodies against the spike receptor-binding domain (heavy:light variable regions). IC50 against pseudoviruses bearing the spike of naturally observed variants; lower = stronger; >10 µg/ml means not reached at the top dose. No active / inactive call. The stated detection limit is 0.0005 µg/ml; values near or below 0.001 µg/ml lie at the floor of the assay.

B1: BD55-6079 (protein)
chain 1: EVKLVESGGGLAQPGGSLRLSCAASGFTFTNYDMHWVRQRAGKGLEWVSSIGSAGDTYYAASVKGRFTISRETDLYLQMSDLRVGDTAVYYCTRVGYGDYDLLGMDVWGQGTMVTVSS
chain 2: SYDLTQPPSVSVSPGQTARITCSGDALPRMYVYWYHQKPGQAPVMLIYKDSERPSGIPERISGSTSGTTVTLTISGVLAEDEGDYYCQTLDSGGSVFGGGTKLTVL
B2: BD55-6090 (protein)
chain 1: VQLVESVGGLAQPGGSLRLSCAASGFTFSKFWMTWVRQAPGKGLEWVANINQDGTETFYADSVKGRFTISRDNAKNSLDLQMNTLRVEDTAVYYCARVDGYRTGGHYVLDYYMDVWGKGTTVTVSS
chain 2: SYELTQPSSVSVSPGQTARITCSGDALARQYVYWYQQKSGQAPVLMIYKDRERPSGIPERFSGSTSGTIVTLTISGVQAEDEADYYCQSADSSGTNMIFGGGTKLTVL
B3: BD55-6103 (protein)
chain 1: QLQLQESGPGLVKPSETLSLTCTVSGGSVSSRSYYWGWIRQPPGKGLEWIGTIYYSGSAQYNPSLKSRVTISVDTSKNQFSLRLSSVTAADTAVYYCARYGGGDAYFDYWGQGTLVTVS
chain 2: DIQMTQSPSTLSASVGDRVTITCRASQSINRWLAWYHQKPGKAPRLLIYMASLLESGVPSRFSGSGSGTEFTLTISSLQPDDFATYYCQQYNSYPYTFGQGTKLEIR
B4: BD55-6208 (protein)
chain 1: EVQLVESGGGLVQPGGSLRLSCAASGFTFSTHYIHWVRQAPGKGLEYLSAVSADGHSTYYAKSVKGRFSISRDNSKNTVYLQMGSLKAEDMGVYYCARDLEYSAWRGTGMGVWGHGTTVTVSS
chain 2: QSVLTQPPSVSGAPGQRVTISCTGSNSNIGAGYDVHWYQQLPGAAPQLLIYGSTNRPSGVPDRFSGSKSGSSASLAITGLQAEDEGDYYCQSYDGSLSGHVVFGGGTKLSVL
B5: BD55-6078 (protein)
chain 1: QLQLQESGPGLVKPSETLSLTCTVSGGSISGSFYYWAWIRQPPGKGLEWIGSIDYSGSTHYNPSLKSRLTMSVDTSRNHFSLKLSSVSAADTALYYCAGHSQWFVPYWSFDLWGRGSLVSVSS
chain 2: SCVLTQPPSVSVAPGKTARISCGLDNIGSKTVHWYMQKPGRAPVLVFYDGSGRPSGSPDRFSGSSSGNTATLTISRVDAGDEADYYCQVWDSSCDVVFGGGTKLTVL
B6: BD55-6092 (protein)
chain 1: QVHLQESGPGLVKPSETLSLTCSVSGDSVTSGDFRWSWIRQPPGKGLEWIGSFYYIGTTEYNPSLKSRVSISVDTSANQLSLDLNSVTAADTALYYCARLPAFSGYDLWASGDYWGRGTLVIVSS
chain 2: EIVLTQSPGTLSLSPGERATLSCRASQSVGSNYLAWHQHKPGQAPRLLIYEASSRATGIPDRFSGSGSGTDFTLTISRLEPEDFAVYYCQQYVTSPWTFGQGTKVEIK

How the values were obtained:
Experiment in all cases: pseudovirus neutralization IC50; higher = weaker neutralization
[1] = biological target: SARS-CoV-2 Omicron BA.1 spike pseudovirus
Experimental: (§1)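 Single-round VSV luciferase pseudovirus mixed with antibody dilutions for 1 h and put on Huh-7 cells for about a day; IC50 from the dose curve.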

[2] = biological target: SARS-CoV-2 Omicron BA.2 spike pseudovirus
Experimental: as §1

[3] = biological target: SARS-CoV-2 Omicron BA.2.75 spike pseudovirus
Experimental: as §1

[4] = biological target: SARS-CoV-2 Omicron BA.5 spike pseudovirus
Experimental: as §1

[5] = biological target: SARS-CoV-2 Omicron BQ.1.1 spike pseudovirus
Experimental: as §1

[6] = biological target: SARS-CoV-2 Omicron XBB spike pseudovirus
Experimental: as §1

[7] = biological target: SARS-CoV-2 early D614G spike pseudovirus
Experimental: as §1

| Binder | pseudovirus neutralization IC50 [1] [µg/mL] | pseudovirus neutralization IC50 [2] [µg/mL] | pseudovirus neutralization IC50 [3] [µg/mL] | pseudovirus neutralization IC50 [4] [µg/mL] | pseudovirus neutralization IC50 [5] [µg/mL] | pseudovirus neutralization IC50 [6] [µg/mL] | pseudovirus neutralization IC50 [7] [µg/mL] |
| --- | --- | --- | --- | --- | --- | --- | --- |
| B1 | > 10 | > 10 | > 10 | > 10 | > 10 | > 10 | > 10 |
| B2 | > 10 | > 10 | > 10 | > 10 | > 10 | > 10 | > 10 |
| B3 | > 10 | > 10 | > 10 | > 10 | > 10 | > 10 | 0.611 |
| B4 | > 10 | > 10 | > 10 | > 10 | > 10 | > 10 | 0.0195 |
| B5 | > 10 | > 10 | > 10 | > 10 | > 10 | > 10 | 0.707 |
| B6 | > 10 | > 10 | > 10 | > 10 | > 10 | > 10 | 0.637 |
